# Reference: patent US20030199438A1, “Method for identification of proteins from intracellular bacteria” (priority 2001, published 2003)
# B1: DT8: novel 7.2 kDa C. trachomatis specific protein, SEQ ID NO:1, not annotated in genome (protein, listed as Chlamydia trachomatis)
# chain: MQHTIMLSLENDNDKLASMMDRVVAASSSILSASKDSESNRQFTISKAPDKEAPCRVSYVAASALSE
# B2: CT610: C. trachomatis protein, isoforms DT7, DT9, DT10, DT11, DT12 (protein)
# chain: MNFLDQLDLIIQNKHMLEHTFYVKWSKGELTKEQLQAYAKDYYLHIKAFPKYLSAIHSRCDDLEARKLLLDNLMDEENGYPNHIDLWKQFVFALGVTPEELEAHEPSEAAKAKVATFMRWCTGDSLAAGVAALYSYESQIPRIAREKIRGLTEYFGFSNPEDYAYFTEHEEADVRHAREEKALIEMLLKDDADKVLEASQEVTQSLYGFLDSFLDPGTCCSCHQSY
# B3: CT858: C. trachomatis 67 kDa protein, fragments DT4 (C-terminal) and DT48 (N-terminal) (protein)
# chain: MKMNRIWLLLLTFSSAIHSPVQGESLVCKNALQDLSFLEHLLQVKYAPKTWKEQYLGWDLVQSSVSAQQKLRTQENPSTSFCQQVLADFIGGLNDFHAGVTFFAIESAYLPYTVQKSSDGRFYFVDIMTFSSEIRVGDELLEVDGAPVQDVLATLYGSNHKGTAAEESAALRTLFSRMASLGHKVPSGRTTLKIRRPFGTTREVRVKWRYVPEGVGDLATIAPSIRAPQLQKSMRSFFPKKDDAFHRSSSLFYSPMVPHFWAELRNHYATSGLKSGYNIGSTDGFLPVIGPVIWESEGLFRAYISSVTDGDGKSHKVGFLRIPTYSWQDMEDFDPSGPPPWEEFAKIIQVFSSNTEALIIDQTNNPGGSVLYLYALLSMLTDRPLELPKHRMILTQDEVVDALDWLTLLENVDTNVESRLALGDNMEGYTVDLQVAEYLKSFGRQVLNCWSKGDIELSTPIPLFGFEKIHPHPRVQYSKPICVLINEQDFSCADFFPVVLKDNDRALIVGTRTAGAGGFVFNVQFPNRTGIKTCSLTGSLAVREHGAFIENIGVEPHIDLPFTANDIRYKGYSEYLDKVKKLVCQLINNDGTIILAEDGSF
# Tested on: C. trachomatis D infected cell cultures
# Test: Pulse chase studies of candidates for secreted proteins (2D-PAGE)
# Assay type: cell-based
# Conditions: labelled 22-24 h.p.i.; for spot intensity at 4.5 hours and until the EB stage: chase 4.5 hours
# Experimental: To label chlamydial proteins for two hour periods, infected cell cultures were incubated in a medium containing RPMI 1640, […] gentamycin, 40 μg/ml cycloheximide, 100 μCi/ml [35S]-methionine/cysteine (Promix, Amersham Pharmacia Biotech, Uppsala, Sweden) as described previously (Shaw et al., 1999,2000) [18.] [19.]. After labelling the labelling medium was changed to normal growth medium following two washes in normal growth medium and the infected cells were harvested at different points in time after labelling. Similarly, labelled EB proteins were obtained by allowing the Chlamydia to grow until 72 h.p.i. after the two hour labelling periods. The labelled EB were then harvested and purified using two consecutive steps of density gradient ultracentrifugation essentially as described for C. trachomatis in (Schacter and Wyrick, 1994) [22.]and for C. pneumoniae (Knudsen et al. 1999 [17.]). Proteins in the EB preparation and pulse chase preparation were labelled at the same intervals as proteins from the whole cell lysate preparation to facilitate correct 2D-PAGE protein profile comparison.
# In order to estimate the time in which the identified candidate proteins could be present inside infected cells, the invention provides a series of pulse chase studies. In the following examples infected cell cultures were [35S]-labelled from 22-24 hours. After the labelling period the medium was changed to normal RPMI growth medium without [35S]-methionine and cells were harvested at different times after labelling.
Molecule,spot intensity 1.5 hours after synthesis (chase 1.5 hours),spot intensity at 4.5 hours and until the EB stage,spot intensity during the first chase periods
B1,significantly decreased,virtually absent,–
B2,–,still detectable,–
B3,–,–,gradually increased
